Anti-infective test results gathered from many reports (values: NIAID ChemDB through PubChem).

MIC bound comes from a single tested concentration.

compound | kind | dose | method | target | strain or isolate | agent | read-out | value
Clc1ccc(N2CCN(c3cncc(-c4csc5ccccc45)n3)CC2)cc1 | target | - | - | UL97 kinase | - | Cytomegalovirus | IC50 | <10 µM
CCOc1ccc2c(c1)n([O-])c1cc(Cl)ccc1[n+]2=O | culture | - | BACTEC | - | H37Rv | Mycobacterium tuberculosis | MIC | 1.6 µg/mL
Fc1ccc(N2CCCCC2)c(NC(=S)c2ccncc2)c1 | host protein | 10 µM | kinase activity | LTK | - | - | inhibition | 6.8%
Cc1nnc2c([N+](=O)[O-])c(N)c(Cl)nn12 | culture | 12.5 µg/mL | BACTEC | - | H37Rv | Mycobacterium tuberculosis | inhibition | 61%
O=C(C(=O)c1ccc(O)cc1)c1ccc(O)cc1 | culture | - | - | - | H37Rv | Mycobacterium tuberculosis | MIC | 100 µg/mL
Fc1ccc(-c2cncc(N3CCN(c4cccc(C(F)(F)F)c4)CC3)n2)cc1Cl | target | 10 µM | - | UL97 kinase | - | Cytomegalovirus | inhibition | >15%
CC(NN)C(=O)O | culture | - | - | - | H37Rv | Mycobacterium tuberculosis | MIC | 100 µg/mL
Fc1ccccc1CCNCCNCC12CC3CC(CC(C3)C1)C2 | culture | - | - | - | - | Mycobacterium tuberculosis | MIC | 50 µM
CN(C)CCC(=O)c1ccccc1 | culture | - | - | - | H37Rv | Mycobacterium tuberculosis | MIC | 25 µg/mL
CC1=Nc2ccccc2C(=O)N(C)N1 | culture | - | BACTEC | - | H37Rv | Mycobacterium tuberculosis | MIC bound | >12.5 µg/mL
CCC1=CC(CC)C2C(=O)N(c3ccc(C)cc3)C1C2C(=O)O | culture | - | - | - | H37Rv | Mycobacterium tuberculosis | MIC | 100 µg/mL
C[C@H](NCCNC[C@@H]1CC[C@H]2C[C@@H]1C2(C)C)C1CCCCC1 | culture | - | - | - | - | Mycobacterium tuberculosis | MIC | 25 µM
Cc1ccc2oc(=O)c(-c3ccccc3)nc2c1 | culture | - | BACTEC | - | H37Rv | Mycobacterium tuberculosis | MIC bound | >12.5 µg/mL
CC(C)c1ccc2c(c1)CC[C@H]1[C@](C)(CNCCN[C@H]3C[C@@H]3c3ccccc3)CCC[C@]21C | culture | - | - | - | - | Mycobacterium tuberculosis | MIC | 50 µM
Fc1ccc(N2CCN(c3cncc(-c4ccc(C(F)(F)F)cc4)n3)CC2)cc1 | target | 1 µM | - | UL97 kinase | - | Cytomegalovirus | inhibition | <50%
Cc1ccsc1/C=N/Nc1cnccn1 | culture | 12.5 µg/mL | BACTEC | - | H37Rv | Mycobacterium tuberculosis | inhibition | 63%
CNC(C)c1cccs1.Cl | culture | - | - | - | H37Rv | Mycobacterium tuberculosis | MIC | 100 µg/mL
O=NNc1ccc2cccnc2n1 | culture | - | BACTEC | - | H37Rv | Mycobacterium tuberculosis | MIC bound | >12.5 µg/mL
Clc1ccc(C(c2ccc(Cl)cc2)C(Cl)(Cl)Cl)cc1 | culture | - | - | - | H37Rv | Mycobacterium tuberculosis | MIC | >100 µg/mL
COc1cccc2c1C(=O)c1c(O)c3c(c(O)c1C2=O)C[C@@](O)(/C(C)=N/NC(=O)CO)CC3OC1CC(N)C(O)C(C)O1.Cl | culture | - | - | - | TAC-R | Mycobacterium tuberculosis | MIC | 6.3 µg/mL
CCOc1ccc(Nc2ccc([N+](=O)[O-])cc2S(=O)(=O)[O-])cc1.[K+] | culture | - | - | - | H37Rv | Mycobacterium tuberculosis | MIC | >100 µg/mL
CCC1C(=O)OCC1Cc1cnc[nH]1 | culture | - | BACTEC | - | H37Rv | Mycobacterium tuberculosis | MIC bound | >12.5 µg/mL
COc1cccc(N2CCN(c3cncc(-c4csc5ccccc45)n3)CC2)c1 | target | 1 µM | - | UL97 kinase | - | Cytomegalovirus | inhibition | <50%
CCN(CC)C(=S)S | culture | - | - | - | H37Rv | Mycobacterium tuberculosis | MIC | 50 µg/mL
C[C@@H]1[C@H]2C[C@@H](C[C@H]1NCCNC1CCCCCCC1)C2(C)C | culture | - | - | - | - | Mycobacterium tuberculosis | MIC | 6.25 µM
CNNC(=O)C(=O)n1ccnc1 | culture | - | BACTEC | - | H37Rv | Mycobacterium tuberculosis | MIC bound | >12.5 µg/mL
CSc1cc(NC(C)=O)c2ncccc2c1N | culture | - | - | - | H37Rv | Mycobacterium tuberculosis | MIC | 100 µg/mL
O=C(N/N=C/c1ccc2c(c1)OCO2)c1ccccc1 | culture | - | BACTEC | - | H37Rv | Mycobacterium tuberculosis | MIC bound | >12.5 µg/mL
CC1=C(O)C(=O)CC1 | culture | - | - | - | H37Rv | Mycobacterium tuberculosis | MIC | 50 µg/mL
CC(CNCCc1ccccc1F)NC1CCCCCCC1 | culture | - | - | - | - | Mycobacterium tuberculosis | MIC | 50 µM
Cc1ccc([N+](=O)[O-])cc1P(=O)(O)c1cc([N+](=O)[O-])ccc1C | culture | - | BACTEC | - | H37Rv | Mycobacterium tuberculosis | MIC bound | >12.5 µg/mL
C=CCc1ccc(OC)c(OC)c1 | culture | - | turbidity | - | 321 | Candida tropicalis | MIC90 | 345 µg/mL
CCCCC(CC)CN1CN(CC(CC)CCCC)CC(C)(NCCNC(CC)CC)C1 | culture | - | - | - | - | Mycobacterium tuberculosis | MIC | 25 µM
O=c1cc(-c2ccccc2)[nH]c2[nH]n(-c3ccccc3)c(=O)c12 | culture | 12.5 µg/mL | BACTEC | - | H37Rv | Mycobacterium tuberculosis | inhibition | 36%
O=C(O)c1ccc(C(=O)O)o1 | culture | - | - | - | H37Rv | Mycobacterium tuberculosis | MIC | >100 µg/mL
O[C@@H]1[C@@H](O)[C@@H](O)CN2CC[C@H](O)[C@@H]12 | culture | - | BACTEC | - | H37Rv | Mycobacterium tuberculosis | MIC bound | >12.5 µg/mL
NCc1ccc(-c2cncc(N3CCN(C(=O)c4ccco4)CC3)n2)cc1 | target | 10 µM | - | UL97 kinase | - | Cytomegalovirus | inhibition | >15%
O=C(O)CC1C=Cc2cc(S(=O)(=O)O)cc3cccc1c23 | culture | - | - | - | H37Rv | Mycobacterium tuberculosis | MIC | 50 µg/mL
Cc1ccc(C(=O)N=Nc2c(Cl)c(O)c3ccccc3c2O)cc1 | culture | - | BACTEC | - | H37Rv | Mycobacterium tuberculosis | MIC bound | ≤12.5 µg/mL
Cl.Nc1ccccc1N1CCCCC1 | culture | - | - | - | H37Rv | Mycobacterium tuberculosis | MIC | >100 µg/mL
CSC(=S)NNC(=O)c1cccc(S(=O)(=O)F)c1 | culture | 12.5 µg/mL | BACTEC | - | H37Rv | Mycobacterium tuberculosis | inhibition | 0%
COc1ccc(N2CCN(c3cncc(-c4ccc(C)cc4)n3)CC2)cc1OC | target | 1 µM | - | UL97 kinase | - | Cytomegalovirus | inhibition | <50%
CC(C)c1ccc2c(c1)CC[C@H]1[C@](C)(CNCCNCc3ccc(F)cc3)CCC[C@]21C | culture | - | - | - | - | Mycobacterium tuberculosis | MIC | 50 µM
Oc1ccc(NC(=S)Nc2ccc(O)cc2)cc1 | culture | - | - | - | H37Rv | Mycobacterium tuberculosis | MIC | 100 µg/mL
CCCCC(CC)CN1CN(CC(CC)CCCC)CC(C)(NCCN[C@H]2C[C@@H]2c2ccccc2)C1 | culture | - | - | - | - | Mycobacterium tuberculosis | MIC | 50 µM
Fc1cccc(-c2cncc(N3CCN(c4ccccc4)CC3)n2)c1 | target | 10 µM | - | UL97 kinase | - | Cytomegalovirus | inhibition | >15%
COc1ccc(CNCCNCCCc2ccccc2)c(OC)c1 | culture | - | - | - | - | Mycobacterium tuberculosis | MIC | 25 µM
CC(=O)Nc1c(Cl)cc(Cl)c(O)c1Cl | culture | - | - | - | H37Rv | Mycobacterium tuberculosis | MIC | >100 µg/mL
Cc1cn(C2CC(N=[N+]=[N-])C(COC(=O)C3(O)CC[C@H]4[C@@H]5CCC6=CC(=O)CC[C@]6(C)[C@H]5C(O)C[C@@]43C)O2)c(=O)[nH]c1=O | culture | - | BACTEC | - | H37Rv | Mycobacterium tuberculosis | MIC bound | >12.5 µg/mL
CC(=O)Nc1ccc(C(=O)C(O)c2ccc(NC(C)=O)cc2)cc1 | culture | - | - | - | H37Rv | Mycobacterium tuberculosis | MIC | >100 µg/mL
COc1ccc(OC)c2c(Cl)cc(N)nc12 | culture | 12.5 µg/mL | BACTEC | - | H37Rv | Mycobacterium tuberculosis | inhibition | 78%
COc1cc(N)ccc1C(=O)O | culture | - | - | - | H37Rv | Mycobacterium tuberculosis | MIC | >100 µg/mL
COc1cc(Nc2cncc(-c3cccc(F)c3)n2)cc(OC)c1OC | target | 1 µM | - | UL97 kinase | - | Cytomegalovirus | inhibition | <50%
C#C/C=C\C[C@H]1O/C(=C(/Br)CC)C/C=C\C[C@H]1Cl | culture | 12.5 µg/mL | BACTEC | - | H37Rv | Mycobacterium tuberculosis | inhibition | 15%
c1ccsc1 | culture | - | - | - | H37Rv | Mycobacterium tuberculosis | MIC | 100 µg/mL
C[n+]1cccc(C(=O)NN)c1.Cc1ccc(S(=O)(=O)[O-])cc1 | culture | - | BACTEC | - | H37Rv | Mycobacterium tuberculosis | MIC bound | >12.5 µg/mL
Cc1cc(N2CCCC2)ccc1N.O=S(=O)(O)O | culture | - | - | - | H37Rv | Mycobacterium tuberculosis | MIC | 50 µg/mL

Percent inhibition refers to the dose given; in toxicity tests it is the harm to the cells. A number after MIC or MFC names an inhibition level or a share of isolates. Lines come from different laboratories, so protocols vary. ICn: concentration for n% inhibition. An empty or dashed field is not shown.